The values that follow come from paper PMC5063381, “Characterization of the Neisseria meningitidis Helicase RecG” (PLoS ONE, 2016).

The data set deals with T1, RecGNm (Neisseria meningitidis MC58) (UniProt Q9JY17).
T1 sequence (looked up, limits assumed): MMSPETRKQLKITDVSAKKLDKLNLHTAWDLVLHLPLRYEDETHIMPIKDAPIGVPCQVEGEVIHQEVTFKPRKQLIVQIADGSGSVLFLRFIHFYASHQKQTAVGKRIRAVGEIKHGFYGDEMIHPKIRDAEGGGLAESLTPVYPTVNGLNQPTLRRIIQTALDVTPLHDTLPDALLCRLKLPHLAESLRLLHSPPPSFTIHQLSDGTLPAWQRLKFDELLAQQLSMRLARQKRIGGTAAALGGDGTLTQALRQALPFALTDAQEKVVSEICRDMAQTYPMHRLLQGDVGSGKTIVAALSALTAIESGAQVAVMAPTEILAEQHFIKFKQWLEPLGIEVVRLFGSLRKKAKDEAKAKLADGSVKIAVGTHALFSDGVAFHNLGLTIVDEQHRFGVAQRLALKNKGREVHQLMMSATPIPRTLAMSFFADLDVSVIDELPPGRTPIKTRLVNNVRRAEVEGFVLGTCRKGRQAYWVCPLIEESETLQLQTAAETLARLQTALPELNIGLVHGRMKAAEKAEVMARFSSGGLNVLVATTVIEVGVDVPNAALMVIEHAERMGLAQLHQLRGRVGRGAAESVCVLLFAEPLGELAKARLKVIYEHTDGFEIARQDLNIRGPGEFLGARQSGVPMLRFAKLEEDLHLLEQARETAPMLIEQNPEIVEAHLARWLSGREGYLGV
Kind of data set: EMSA. The settings on record: 200-400 nM protein; EMSA: 40 mM Tris-HCl pH 8, 2.5 mM EDTA, 2 mM MgCl2, 6% glycerol, 1 mM DTT, 0.1 nM DNA, 15 min on ice; recombinant protein; protein details: N-terminal 6xHis (pET28b).

Construct, isoform or probe ends are uncertain for at least one entry. Tags and fusion partners may be left off the protein sequences shown.

“GGGTGAACCTGCAGGTGGGCGGCTGCTCATCGTAGGTTAGTTGGTAGAATTCGGCAGCGTC / GACGCTGCCGAATTCTACCAGTGCCTTGCTAGGACATCTTTGCCCACCTGCAGGTTCACCC / AAAGATGTCCTAGCAAGGCACGATCGACCGGATATCTATGA [3' tail D-loop]”: the binding result is listed as “binds”.
Under “GGGTGAACCTGCAGGTGGGCGGCTGCTCATCGTAGGTTAGTTGGTAGAATTCGGCAGCGTC / GACGCTGCCGAATTCTACCAGTGCCTTGCTAGGACATCTTTGCCCACCTGCAGGTTCACCC / TAAGAGCAAGATGTTCTATAAAAGATGTCCTAGCAAGGCAC [5' tail D-loop]” stands “binds”.
Take “GGGTGAACCTGCAGGTGGGCGGCTGCTCATCGTAGGTTAGTTGGTAGAATTCGGCAGCGTC / GACGCTGCCGAATTCTACCAGTGCCTTGCTAGGACATCTTTGCCCACCTGCAGGTTCACCC / TATAGAACATCTTGCTCGTTTTCGAGCAAGATGTTCTATAAAAGATGTCCTAGCAAGGCAC [5' hairpin tail D-loop]”: the binding result is listed as “binds”.
